# In patent publication US20240182848A1, “SULFAMETHOXAZOLE-DEGRADING PSEUDOMONAS SILESIENSIS STRAIN, AND APPLICATION THEREOF” (CHINESE RESEARCH ACADEMY OF ENVIRONMENTAL SCIENCES, priority 2021, published 2024):
# Test system: F6a strain
# Assay: Fate of SMX intermediate products during degradation by F6a strain (UPLC-QTOF-MS / HPLC/MS/MS)
# Design: species or system Pseudomonas silesiensis
# Details: 10 mg/L SMX, R2A medium, absorption peaks followed up to 336 h
row,Molecule,fate of intermediate product (mineralization) during SMX degradation
1,3-amino-5-carboxyl hydroxylamine [C4],completely mineralized
2,"Nc1ccc(S(=O)(=O)O)cc1 [C8, 4-aminobenzenesulfonic acid]",completely mineralized
